Data reported in ChEMBL document CHEMBL1275243 (2010).

Legend:
Bacillus anthracis [1] = assay: Antimicrobial activity against Bacillus anthracis 240 assessed as change in fluorescence threshold cycle at. 03 ug/ml after 4 hrs by real-time PCR viability assay relative to control
Bacillus anthracis [2] = assay: Antimicrobial activity against Bacillus anthracis A0149 assessed as change in fluorescence threshold cycle at 0.015 ug/ml after 4 hrs by real-time PCR viability assay relative to control
Bacillus anthracis [3] = assay: Antimicrobial activity against pXO1-positive and pXO2 negative Bacillus anthracis 34F2 assessed as change in fluorescence threshold cycle at 1 ug/ml after 4 hrs by real-time PCR viability assay relative to control
Bacillus anthracis [4] = assay: Antimicrobial activity against Bacillus anthracis A0419 assessed as change in fluorescence threshold cycle at 0.5 ug/ml after 4 hrs by real-time PCR viability assay relative to control
Bacillus anthracis [5] = assay: Antimicrobial activity against Bacillus anthracis A0465 assessed as change in fluorescence threshold cycle at. 03 ug/ml after 4 hrs by real-time PCR viability assay relative to control
Bacillus anthracis [6] = assay: Antimicrobial activity against Bacillus anthracis A0248 assessed as change in fluorescence threshold cycle at 0.015 ug/ml after 4 hrs by real-time PCR viability assay relative to control
Bacillus anthracis [7] = assay: Antimicrobial activity against Bacillus anthracis A0293 assessed as change in fluorescence threshold cycle at 0.06 ug/ml after 4 hrs by real-time PCR viability assay relative to control
Bacillus anthracis [8] = assay: Antimicrobial activity against Bacillus anthracis A0488 assessed as change in fluorescence threshold cycle at. 03 ug/ml after 4 hrs by real-time PCR viability assay relative to control
Bacillus anthracis [9] = assay: Antimicrobial activity against Bacillus anthracis A0419 assessed as change in fluorescence threshold cycle at 0.015 ug/ml after 4 hrs by real-time PCR viability assay relative to control
Bacillus anthracis [10] = assay: Antimicrobial activity against Bacillus anthracis A0193 assessed as change in fluorescence threshold cycle at 1 ug/ml after 4 hrs by real-time PCR viability assay relative to control
Bacillus anthracis [11] = assay: Antimicrobial activity against Bacillus anthracis A0465 assessed as change in fluorescence threshold cycle at 0.015 ug/ml after 4 hrs by real-time PCR viability assay relative to control
Bacillus anthracis [12] = assay: Antimicrobial activity against Bacillus anthracis A0462 assessed as change in fluorescence threshold cycle at 2 ug/ml after 4 hrs by real-time PCR viability assay relative to control
Bacillus anthracis [13] = assay: Antimicrobial activity against Bacillus anthracis A0293 assessed as change in fluorescence threshold cycle at 1 ug/ml after 4 hrs by real-time PCR viability assay relative to control
Bacillus anthracis [14] = assay: Antimicrobial activity against Bacillus anthracis A03768 assessed as change in fluorescence threshold cycle at 2 ug/ml after 4 hrs by real-time PCR viability assay relative to control
Bacillus anthracis [15] = assay: Antimicrobial activity against Bacillus anthracis A0102 assessed as change in fluorescence threshold cycle at 0.015 ug/ml after 4 hrs by real-time PCR viability assay relative to control
Bacillus anthracis [16] = assay: Antimicrobial activity against Bacillus anthracis 240 assessed as change in fluorescence threshold cycle at 0.015 ug/ml after 4 hrs by real-time PCR viability assay relative to control
Bacillus anthracis [17] = assay: Antimicrobial activity against pXO1-positive and pXO2 negative Bacillus anthracis 34F2 assessed as change in fluorescence threshold cycle at 8 ug/ml after 4 hrs by real-time PCR viability assay relative to control
Bacillus anthracis [18] = assay: Antimicrobial activity against Bacillus anthracis A0149 assessed as change in fluorescence threshold cycle at 4 ug/ml after 4 hrs by real-time PCR viability assay relative to control
Bacillus anthracis [19] = assay: Antimicrobial activity against Bacillus anthracis A0264 assessed as change in fluorescence threshold cycle at 64 ug/ml after 4 hrs by real-time PCR viability assay relative to control
Bacillus anthracis [20] = assay: Antimicrobial activity against Bacillus anthracis A0193 assessed as change in fluorescence threshold cycle at 32 ug/ml after 4 hrs by real-time PCR viability assay relative to control
Bacillus anthracis [21] = assay: Antimicrobial activity against Bacillus anthracis A0188 assessed as change in fluorescence threshold cycle at 8 ug/ml after 4 hrs by real-time PCR viability assay relative to control
Bacillus anthracis [22] = assay: Antimicrobial activity against Bacillus anthracis A0419 assessed as change in fluorescence threshold cycle at 64 ug/ml after 4 hrs by real-time PCR viability assay relative to control
Bacillus anthracis [23] = assay: Antimicrobial activity against Bacillus anthracis A0488 assessed as change in fluorescence threshold cycle at 32 ug/ml after 4 hrs by real-time PCR viability assay relative to control
Bacillus anthracis [24] = assay: Antimicrobial activity against Bacillus anthracis 240 assessed as change in fluorescence threshold cycle at 64 ug/ml after 4 hrs by real-time PCR viability assay relative to control
Bacillus anthracis [25] = assay: Antimicrobial activity against Bacillus anthracis A03768 assessed as change in fluorescence threshold cycle at 64 ug/ml after 4 hrs by real-time PCR viability assay relative to control
Bacillus anthracis [26] = assay: Antimicrobial activity against Bacillus anthracis A0188 assessed as change in fluorescence threshold cycle at 64 ug/ml after 4 hrs by real-time PCR viability assay relative to control
Bacillus anthracis [27] = assay: Antimicrobial activity against Bacillus anthracis A0465 assessed as change in fluorescence threshold cycle at 32 ug/ml after 4 hrs by real-time PCR viability assay relative to control
Bacillus anthracis [28] = assay: Antimicrobial activity against pXO1-positive and pXO2 negative Bacillus anthracis 34F2 assessed as change in fluorescence threshold cycle at 32 ug/ml after 4 hrs by real-time PCR viability assay relative to control

## O=C(O)c1cn(C2CC2)c2cc(N3CCNCC3)c(F)cc2c1=O [CIPROFLOXACIN]
Bacillus anthracis [1]
  deltaCT: 7.98
Bacillus anthracis [2]
  deltaCT: 7.69
Bacillus anthracis [3]
  deltaCT: 8.53
Bacillus anthracis [4]
  deltaCT: 8.9
Bacillus anthracis [5]
  deltaCT: 9.23
Bacillus anthracis [6]
  deltaCT: 8.21
Bacillus anthracis [7]
  deltaCT: 7.63
Bacillus anthracis [8]
  deltaCT: 8.78
Bacillus anthracis [9]
  deltaCT: 8.81
Bacillus anthracis [10]
  deltaCT: 8.21
Bacillus anthracis [11]
  deltaCT: 0.54
Bacillus anthracis [12]
  deltaCT: 5.59
Bacillus anthracis [13]
  deltaCT: 0.66
Bacillus anthracis [14]
  deltaCT: 4.18
Bacillus anthracis [15]
  deltaCT: 1.95
Bacillus anthracis [16]
  deltaCT: 5
Bacillus anthracis [17]
  deltaCT: 6.87
Bacillus anthracis [18]
  deltaCT: 6.16

## C[C@H]1c2cccc(O)c2C(=O)C2=C(O)[C@]3(O)C(=O)C(C(N)=O)=C(O)[C@@H](N(C)C)[C@@H]3[C@@H](O)[C@@H]21.O [DOXYCYCLINE]
Bacillus anthracis [19]
  deltaCT: 7.21
Bacillus anthracis [20]
  deltaCT: 7.7
Bacillus anthracis [21]
  deltaCT: 8.12
Bacillus anthracis [3]
  deltaCT: 8.32
Bacillus anthracis [4]
  deltaCT: 6.87
Bacillus anthracis [7]
  deltaCT: 7.6
Bacillus anthracis [22]
  deltaCT: 7.25
Bacillus anthracis [23]
  deltaCT: 6.67
Bacillus anthracis [10]
  deltaCT: 9.32
Bacillus anthracis [24]
  deltaCT: 7.23
Bacillus anthracis [25]
  deltaCT: 8.22
Bacillus anthracis [12]
  deltaCT: 8.39
Bacillus anthracis [13]
  deltaCT: 8.81
Bacillus anthracis [14]
  deltaCT: 8.08
Bacillus anthracis [26]
  deltaCT: 8.09
Bacillus anthracis [27]
  deltaCT: 6.57
Bacillus anthracis [28]
  deltaCT: 7.22
Bacillus anthracis [17]
  deltaCT: 7.73
Bacillus anthracis [18]
  deltaCT: 7.02
